In one experiment the test system is A/tianjinjinnan/15/2009. The format is cell-based, Influenza A virus (H1N1, oseltamivir-resistant).
Experiment [1] has as its system A/liaoningzhenxing/1109/2010. In kind it is cell-based, Influenza A virus (H1N1, oseltamivir-resistant).
The next experiment has as its system A/fujiantongan/196/2009. The format is cell-based, Influenza A virus (H3N2, amantadine-resistant).
In another experiment the test system is A/hunanzhuhui/1222/2010. Briefly: microbe, parasite or virus in culture. The format is cell-based, Influenza A virus (H3N2, amantadine-resistant).

As usually defined, the IC50 is the point on the concentration scale where inhibition reaches its midpoint. Lower therefore signals greater potency in that assay. Turning to `NC(=O)c1ncn([C@@H]2O[C@H](CO)[C@@H](O)[C@H]2O)n1` [RBV, Ribavirin], the SI was more than 78.74 in the experiment with A/tianjinjinnan/15/2009, more than 40.65 in experiment [1], more than 45.25 in the experiment with A/fujiantongan/196/2009 and more than 85.47 in the experiment with A/hunanzhuhui/1222/2010. In the experiment with A/hunanzhuhui/1222/2010 (Influenza A virus, MDCK), this molecule displayed an IC50 of 2.34 ± 0.98 µM.

Source of the values: paper PMC5353780, “A novel benzo-heterocyclic amine derivative N30 inhibits influenza virus replication by depression of Inosine-5’-Monophospate Dehydrogenase activity” (Virology Journal, 2017).
